Reference: publication PMC12476894, “Identification of α‑Azacyclic Acetamide-Based Inhibitors of P. falciparum Na^+ Pump (PfATP4) with Fast-Killing Asexual Blood-Stage Antimalarial Activity by Phenotypic Screening” (ACS Infectious Diseases, 2025)

What was measured:
[1] = system: Pf3D7 trophozoite-stage parasites, cytosolic pH (pHcyt); cell-based assay for ATP4 inhibition; assay: P. falciparum cytosolic dose response pH assay (BCECF, with concanamycin A); conditions: Pf3D7, CMA 50 nM
Dd2^G358S (PfATP4^G358S) = assay: Drug susceptibility assay for cross-resistance profiling (Fidock Lab), G358S; format: cell-based, Plasmodium falciparum; conditions: for EC50: Plasmodium falciparum, DD2
[2] = SJ733-selected line, Table 3 data set, read-out: EC50, Dd2^G358S
[3] = Table S8 independent data set, read-out: EC50, Dd2G358S (Dd2-SJ16-D2)

| Structure (SMILES) | effect on parasite cytosolic pH (pHcyt) in presence of CMA (in words) [1] | EC50 (Dd2^G358S (PfATP4^G358S); [2]) [nM] | EC50 (Dd2^G358S (PfATP4^G358S); [3]) [nM] | EC50 fold-change vs Dd2-B2, Dd2^G358S (Dd2^G358S (PfATP4^G358S); Table 3 data set) | Fold change vs Dd2-B2, Dd2G358S (Dd2^G358S (PfATP4^G358S); Table S8 independent data set) [fold] |
| --- | --- | --- | --- | --- | --- |
| Cc1cc(Nc2ccc(S(F)(F)(F)(F)F)cc2)n2nc(C(C)(F)F)nc2n1 [DSM265, reference compound] | did not lead to alkalinization of the parasite cytosol | – | – | – | – |
| C[C@H]1Cc2c([nH]c3cc(Cl)c(F)cc23)[C@@]2(N1)C(=O)Nc1ccc(Cl)cc12 [KAE609, cipargamin, reference compound] | – | 755 ± 79 | 1500 | 600- to 700 fold and 580 fold | 710 |
| N#Cc1cc(NC(=O)[C@H]2c3ccccc3C(=O)N(CC(F)(F)F)[C@@H]2c2cccnc2)ccc1F [SJ733] | – | – | 31000 | – | – |
| Cc1ccnc(NC(=O)Cn2cccc2-c2nc(-c3ccccc3)cs2)c1 [compound 2, N-(4-methylpyridin-2-yl)-2-(2-(4-phenylthiazol-2-yl)-1H-pyrrol-1-yl)acetamide] | – | 220 ± 18 | – | – | – |
| Cc1nn(CCNC(=O)Cn2c(C)c(C#N)c3ccccc32)c(C)c1Cl [compound 3, N-(2-(4-chloro-3,5-dimethyl-1H-pyrazol-1-yl)ethyl)-2-(3-cyano-2-methyl-1H-indol-1-yl)acetamide] | – | 1000 ± 110 | – | 1.9 fold | – |

Where “and” joins values, the source holds several entries; their conditions need not be identical. Equal entries are not always repeated. Where two headings read alike, the source gives them in different places.
